Anti-infective test results gathered from many reports (values: NIAID ChemDB through PubChem).

All rows: host cell toxicity; cells: CEM; measure: CC50

a–b is a range or a potency band.

{"SMILES": "COC(=O)C(C)NP(=O)(OC[C@H]1C/C1=C/n1cnc2c(N)nc(N)nc21)Oc1ccccc1", "result": "20 µM"}
{"SMILES": "COC(=O)[C@H](C)NP(=O)(OC[C@@H]1C=C[C@H](n2cc(C)c(=O)[nH]c2=O)O1)Oc1ccccc1", "result": "≥100 µM"}
{"SMILES": "O=c1[nH]c(=O)n([C@H]2C[C@H](F)[C@@H](CO)O2)cc1/C(Cl)=C/I", "result": "33.1 µM"}
{"SMILES": "CNNC(=NS(=O)(=O)c1cc(C#N)c(NNC)cc1S)NNC", "result": "110 µM"}
{"SMILES": "CC(n1ccc(=O)[nH]c1=O)C1(COCP(=O)(O)O)CC1", "result": ">100 µM"}
{"SMILES": "NNC(=O)c1ccccc1SSc1ccccc1C(=O)NN", "result": "4.97 µM"}
{"SMILES": "Nc1nc(NC2CC2)c2ncn([C@H]3C=C[C@@H](CO)O3)c2n1", "result": "200 µM"}
{"SMILES": "[N-]=[N+]=N[C@H]1C[C@H](n2cc(/C(Cl)=C\\I)c(=O)[nH]c2=O)O[C@@H]1CO", "result": "48.1 µM"}
{"SMILES": "Cc1cn([C@H]2C=C[C@@H](CO)O2)c(=O)[nH]c1=O", "result": ">100 µM"}
{"SMILES": "Nc1nc(N)c2ncn([C@H]3CO[C@@H](CO)O3)c2n1", "result": ">500 µM"}
{"SMILES": "Nc1nc2c(ncn2C2CC(CO)C2)c(=O)[nH]1", "result": ">425 µM"}
{"SMILES": "Cc1cn([C@@H]2O[C@H](CO[Si](C)(C)C(C)(C)C)C3(OS(=O)(=O)C=C3N)[C@H]2O[Si](C)(C)C(C)(C)C)c(=O)n(C)c1=O", "result": ">20 µg/mL"}
{"SMILES": "COC(=O)[C@H](C)NP(=O)(OC[C@H]1O[C@@H](n2cc(C)c(=O)[nH]c2=O)C[C@@H]1N=[N+]=[N-])Oc1ccccc1", "result": ">100 µM"}
{"SMILES": "Nc1nc2c(ncn2[C@@H]2O[C@H](COP(=O)(O)O)[C@@H](O)[C@H]2O)c(=O)o1", "result": ">500 µg/mL"}
{"SMILES": "COC(=O)C(C)NP(=O)(OC[C@@H]1C/C1=C/n1cnc2c(N)nc(N)nc21)Oc1ccccc1", "result": "30 µM"}
{"SMILES": "Cc1c(O)cccc1C(=O)N[C@@H](Cc1ccccc1)C[C@H](O)[C@H](Cc1ccccc1)NC(=O)c1ccccc1NC(=O)OCc1ccccn1", "result": ">1 µM"}
{"SMILES": "COC(=O)[C@H](C)NP(=O)(OC[C@@H]1CC[C@H](n2cnc3c(N)ncnc32)O1)Oc1ccccc1", "result": "2.6 µM"}
{"SMILES": "C=C(COCP(=O)(O)O)C(C)n1cc(C)c(=O)[nH]c1=O", "result": ">100 µM"}
{"SMILES": "CCCc1cnnn1[C@@H]1O[C@H](CO[Si](C)(C)C(C)(C)C)C2(OS(=O)(=O)C=C2N)[C@H]1O[Si](C)(C)C(C)(C)C", "result": ">3.9 µM"}
{"SMILES": "Nc1nc2c(ncn2[C@@H]2C[C@H](CO)[C@@H](O)[C@H]2O)c(=O)o1", "result": ">500 µg/mL"}
{"SMILES": "Nc1nc(Cl)c2ncn(/C=C3/C[C@H]3CO)c2n1", "result": "70 µM"}
{"SMILES": "Nc1nc2c(ncn2[C@H]2C[C@@H](O)[C@H](CO)O2)c(=O)[nH]1", "result": ">500 µM"}
{"SMILES": "CCOCn1c(Cc2ccccc2)c(C(C)C)c(=O)[nH]c1=O", "result": ">20 µg/mL"}
{"SMILES": "C[C@]1(CCP(=O)(O)O)CO[C@@H](n2cnc3c(=O)[nH]c(N)nc32)C1", "result": ">100 µM"}
{"SMILES": "CCCc1cn([C@@H]2O[C@H](CO[Si](C)(C)C(C)(C)C)C3(OS(=O)(=O)C=C3N)[C@H]2O[Si](C)(C)C(C)(C)C)nn1", "result": ">1.3 µM"}
{"SMILES": "Nc1nc2c(ncn2COC(CO)CO)c(=O)[nH]1", "result": ">10 µM"}
{"SMILES": "Cc1cc(S(=O)(=O)Nc2n[nH]c(-c3ccccn3)n2)c(S)cc1Cl", "result": "4.3 µM"}
{"SMILES": "CCc1c(Cc2cc(C)cc(C)c2)n(COCc2ccc(OP(=O)(OCCSC(=O)C(C)(C)C)OC[C@@H]3C=C[C@H](n4cc(C)c(=O)[nH]c4=O)O3)cc2)c(=O)[nH]c1=O", "result": "32 µM"}
{"SMILES": "Cc1cc(S(=O)(=O)Nc2n[nH]c(N)n2)c(SCC(=O)O)cc1Cl", "result": ">200 µM"}
{"SMILES": "FCC1CO1", "result": "0.05–100 µM"}
{"SMILES": "COC(=O)[C@H](C)NP(=O)(OC[C@@H]1C=C[C@H](n2cc(C)c(=O)[nH]c2=O)O1)Oc1ccccc1", "result": ">10 µM"}
{"SMILES": "Cc1cn([C@H]2C[C@H](N=[N+]=[N-])[C@@H](CO)O2)c(=O)[nH]c1=O", "result": "13 µM"}
{"SMILES": "CCOCn1c(Cc2ccccc2)c(C(C)C)c(=O)n(C(=O)c2ccc(OP(=O)(OCCSC(=O)C(C)(C)C)OC[C@@H]3C=C[C@H](n4cc(C)c(=O)[nH]c4=O)O3)cc2)c1=O", "result": "32 µM"}
{"SMILES": "O=c1ccn([C@@H]2O[C@@H](CO)[C@H](O)[C@H]2O)c(=O)[nH]1", "result": ">1000 µM"}
{"SMILES": "Cc1cc(S(N)(=O)=O)c(SCc2nc(N)nc(N(C)C)n2)cc1Cl", "result": ">200 µM"}
{"SMILES": "Cc1cn([C@H]2C[C@H](N=[N+]=[N-])[C@@H](CO)O2)c(=O)[nH]c1=O", "result": "13 µM"}
{"SMILES": "Cc1c(Sc2ccccc2)n(COC(CN=[N+]=[N-])COCc2ccccc2)c(=O)[nH]c1=O", "result": "0.05–100 µM"}
{"SMILES": "Cc1cc(S(=O)(=O)Nc2nc(N)nc(N(C)C)n2)c(S)cc1Cl", "result": ">200 µM"}
{"SMILES": "CC(C)(C)[Si](C)(C)OC[C@H]1O[C@@H](n2nncc2CCCCl)[C@H](O[Si](C)(C)C(C)(C)C)C12OS(=O)(=O)C=C2N", "result": ">0.82 µM"}
{"SMILES": "Nc1ncnc2c1ncn2[C@H]1CC[C@@H](CO)O1", "result": ">100 µM"}
{"SMILES": "Nc1ncnc2c1ncn2CCOCP(=O)(O)O", "result": "50.3 µM"}
{"SMILES": "Cc1cc(S(=O)(=O)Nc2nc(N)nc3nc4ccccc4n23)c(S)cc1Cl", "result": ">200 µM"}
{"SMILES": "Nc1ccn([C@H]2CC[C@@H](CO)O2)c(=O)n1", "result": "3 µM"}
{"SMILES": "CCCCc1cn([C@@H]2O[C@H](CO[Si](C)(C)C(C)(C)C)C3(OS(=O)(=O)C=C3N)[C@H]2O[Si](C)(C)C(C)(C)C)nn1", "result": ">1.5 µM"}
{"SMILES": "CC(C)(C)OC(=O)N[C@@H](Cc1ccccc1)[C@@H](O)C[C@H](Cc1ccccc1)NC(=O)c1ccccc1NC(=O)OCc1ccccn1", "result": ">0.6 µM"}
{"SMILES": "CCCCCCCCCCCCCC(=O)OC[C@@H](COP(=O)(O)OC[C@@H]1CC[C@H](n2ccc(N)nc2=O)O1)OC(=O)CCCCCCCCCCCCC", "result": ">71.4 µM"}
{"SMILES": "Cc1cn([C@H]2C[C@H](N=[N+]=[N-])[C@@H](COP(=O)(O)OC[C@H]3CC[C@@H](n4cnc5c(N)ncnc54)O3)O2)c(=O)[nH]c1=O", "result": "128.1 µM"}
{"SMILES": "Nc1ncnc2c1ncn2[C@@H]1C[C@H](O)[C@@H](O)[C@H]1O", "result": "500 µg/mL"}
{"SMILES": "CCOC(=O)c1cnnn1[C@@H]1O[C@H](CO[Si](C)(C)C(C)(C)C)C2(OS(=O)(=O)C=C2N)[C@H]1O[Si](C)(C)C(C)(C)C", "result": ">1.3 µM"}
{"SMILES": "Nc1nc2c(ncn2[C@H]2C=C[C@@H](CO)O2)c(=O)o1", "result": "300 µg/mL"}
{"SMILES": "Cc1cn([C@H]2C[C@H](N=[N+]=[N-])[C@@H](COP(=O)(OCCC#N)OC[C@@H]3CC[C@H](n4cnc5c(N)ncnc54)O3)O2)c(=O)[nH]c1=O", "result": "130.5 µM"}
{"SMILES": "Cc1cc(S(=O)(=O)Nc2nnc3cc(C(F)(F)F)cc(C)n23)c(S)cc1Cl", "result": ">200 µM"}
{"SMILES": "Cc1cc(SC2=C(O)CC(C)(CCc3ccc(O)cc3)OC2=O)c(C(C)(C)C)cc1OS(=O)(=O)c1cn(C)cn1", "result": ">100 µM"}
{"SMILES": "Nc1nc(=O)n([C@@H]2CS[C@H](CO)O2)cc1F", "result": "14.3 µM"}
{"SMILES": "CCOC(=O)N[C@H](C(=O)N[C@@H](Cc1ccccc1)[C@@H](O)C[C@H](Cc1ccccc1)NC(=O)c1ccccc1NC(=O)OCc1ccccn1)C(C)C", "result": ">0.007 µM"}
{"SMILES": "Nc1nc(Cl)c2ncn(/C=C3/C[C@@H]3CO)c2n1", "result": "96 µM"}
{"SMILES": "Nc1nc2c(ncn2[C@@H]2O[C@@H](CO)[C@H](O)[C@H]2O)c(=O)[nH]1", "result": ">100 µM"}
{"SMILES": "Nc1ccn([C@H]2CC[C@@H](CO)O2)c(=O)n1", "result": "12.3 µg/mL"}
{"SMILES": "Cc1ccnc2c1NC(=O)c1cccnc1N2C1CC1", "result": ">20 µg/mL"}
{"SMILES": "O=C(Nc1ccccc1C(=O)N[C@@H](Cc1ccccc1)[C@H](O)[C@H](O)[C@H](Cc1ccccc1)NC(=O)c1ccno1)OCc1ccccn1", "result": ">0.8 µM"}
{"SMILES": "CN(C)C(=O)c1cnnn1[C@@H]1O[C@H](CO[Si](C)(C)C(C)(C)C)C2(OS(=O)(=O)C=C2N)[C@H]1O[Si](C)(C)C(C)(C)C", "result": ">0.32 µM"}
{"SMILES": "O=C(Nc1ccccc1C(=O)N[C@@H](Cc1ccccc1)[C@H](O)[C@H](O)[C@H](Cc1ccccc1)NC(=O)OC1CCOC1)OCc1ccccn1", "result": ">0.06 µM"}
{"SMILES": "O=c1[nH]c(=O)n([C@H]2C[C@H](F)[C@@H](CO)O2)cc1/C(I)=C/I", "result": "100 µM"}
{"SMILES": "Cc1cn(C(C)C2(COCP(=O)(O)O)CC2)c(=O)[nH]c1=O", "result": "99 µM"}
{"SMILES": "O=C(Nc1ccccc1C(=O)N[C@@H](Cc1ccccc1)C[C@H](O)[C@H](Cc1ccccc1)NC(=O)OCc1cncs1)OCc1ccccn1", "result": ">0.2 µM"}
{"SMILES": "[N-]=[N+]=N[C@H]1C[C@H](n2cc(C#CI)c(=O)[nH]c2=O)O[C@@H]1CO", "result": "31.6 µM"}
{"SMILES": "Cc1cn([C@H]2C[C@@H](O)[C@H](CO)O2)c(=O)[nH]c1=O", "result": ">1000 µM"}

For reference, 5 entries again:

| SMILES | result |
|---|---|
| [N-]=[N+]=N[C@H]1C[C@H](n2cc(/C(Cl)=C\I)c(=O)[nH]c2=O)O[C@@H]1CO | 48.1 µM |
| CCOC(=O)c1cnnn1[C@@H]1O[C@H](CO[Si](C)(C)C(C)(C)C)C2(OS(=O)(=O)C=C2N)[C@H]1O[Si](C)(C)C(C)(C)C | >1.3 µM |
| Cc1cc(S(=O)(=O)Nc2n[nH]c(N)n2)c(SCC(=O)O)cc1Cl | >200 µM |
| O=c1ccn([C@@H]2O[C@@H](CO)[C@H](O)[C@H]2O)c(=O)[nH]1 | >1000 µM |
| Nc1ccn([C@H]2CC[C@@H](CO)O2)c(=O)n1 | 3 µM |

Rows are shuffled and stem from different studies. CCn: concentration that lowers growth or viability of the cells by n%.